Measured values from PMC10522769.

Tests used:
NCCCC[C@H](N)C(=O)O = test: purified protein; conditions: 3 mM ATP, 15 mM MgCl2, 150 mM hydroxylamine, HEPES pH 7.5, 37 °C, 1 µM enzyme
NCCC[C@H](N)C(=O)O = test: purified protein; conditions: 3 mM ATP, 15 mM MgCl2, 150 mM hydroxylamine, HEPES pH 7.5, 37 °C

PosA adenylation domain (Acinetobacter baumannii AB307-0294; M218A)
Km (NCCCC[C@H](N)C(=O)O): 4.26 ± 0.54 mM | Vmax (NCCCC[C@H](N)C(=O)O): 7.06 µM/min | kcat (NCCCC[C@H](N)C(=O)O): 0.118 s⁻¹ | kcat/Km (NCCCC[C@H](N)C(=O)O): 27.6 M⁻¹ s⁻¹ | Km (NCCC[C@H](N)C(=O)O; 1 µM enzyme): 0.51 ± 0.02 mM | Vmax (NCCC[C@H](N)C(=O)O; 1 µM enzyme): 14.5 µM/min | kcat (NCCC[C@H](N)C(=O)O; 1 µM enzyme): 0.242 s⁻¹ | kcat/Km (NCCC[C@H](N)C(=O)O; 1 µM enzyme): 474 M⁻¹ s⁻¹

PosA adenylation domain (Acinetobacter baumannii AB307-0294; T304A)
Km (NCCC[C@H](N)C(=O)O; 5 µM enzyme): 2.12 ± 0.26 mM | Vmax (NCCC[C@H](N)C(=O)O; 5 µM enzyme): 10.4 µM/min | kcat (NCCC[C@H](N)C(=O)O; 5 µM enzyme): 0.0347 s⁻¹ | kcat/Km (NCCC[C@H](N)C(=O)O; 5 µM enzyme): 16.4 M⁻¹ s⁻¹

PosA adenylation domain (Acinetobacter baumannii AB307-0294; S313A)
Km (NCCC[C@H](N)C(=O)O; 8 µM enzyme): 32.2 ± 3.1 mM | Vmax (NCCC[C@H](N)C(=O)O; 8 µM enzyme): 45.7 µM/min | kcat (NCCC[C@H](N)C(=O)O; 8 µM enzyme): 0.0952 s⁻¹ | kcat/Km (NCCC[C@H](N)C(=O)O; 8 µM enzyme): 2.96 M⁻¹ s⁻¹
